Results on 7 sequences are retold here after PMC6498484.

For some assays here: Where a protein sequence is shown, tags need not be part of it. For some assays here: For at least one entry, the source does not settle the construct or the ends of the probe. For some assays here: At least one verdict was read from the data and is not stated in words by the source.

Holding throughout (assay): EMSA
The target in data set [1] is T1, PoxCxrA17-150 (Penicillium oxalicum HP7-1) (UniProt A0A2H4WV05).
T1 sequence (looked up): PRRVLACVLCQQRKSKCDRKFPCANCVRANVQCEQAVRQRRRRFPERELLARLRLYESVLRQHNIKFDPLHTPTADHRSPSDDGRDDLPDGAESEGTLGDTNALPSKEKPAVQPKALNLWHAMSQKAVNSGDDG
Particulars: EMSA: 20 mM Tris-HCl pH 8.0, 50 mM KCl, 0.1 mg/mL BSA, 5% glycerol, 1 mM DTT, 1 ug salmon sperm DNA, ~50 ng probe, 30 min at 30 C, footprinting at 30 C, recombinant protein, residues 17-150, protein details: N-terminal Trx-His-S (pET32a), probe letters rebuilt from the primers and the genome.

Data set [2] has as its system PoxCxrA17-150 + PoxClrB1-120. Particulars: both proteins, larger complex than either alone; EMSA: 20 mM Tris-HCl pH 8.0, 50 mM KCl, 0.1 mg/mL BSA, 5% glycerol, 1 mM DTT, 1 ug salmon sperm DNA, ~50 ng probe, 30 min at 30 C; footprinting at 30 C; recombinant protein; protein details: N-terminal Trx-His-S (pET32a),Trx-His-S (pET32a); label: 6-FAM; probe letters rebuilt from the primers and the genome. (In general: In EMSA bound probe runs differently from free probe, usually more slowly.)

Data set [3] has as its target T2, PoxClrB1-120 (Penicillium oxalicum HP7-1) (UniProt A0A1C9J6R8).
T2 sequence (looked up): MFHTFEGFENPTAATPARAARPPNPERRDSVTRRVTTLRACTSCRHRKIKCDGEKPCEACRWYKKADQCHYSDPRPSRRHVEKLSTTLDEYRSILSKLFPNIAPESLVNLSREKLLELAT
Particulars: EMSA: 20 mM Tris-HCl pH 8.0, 50 mM KCl, 0.1 mg/mL BSA, 5% glycerol, 1 mM DTT, 1 ug salmon sperm DNA, ~50 ng probe, 30 min at 30 C; footprinting at 30 C; recombinant protein; residues 1-120; protein details: Trx-His-S (pET32a); label: 6-FAM; probe letters rebuilt from the primers and the genome.

Data set [4] concerns the target T3, PoxCxrA11-58 (Penicillium oxalicum HP7-1) (UniProt A0A2H4WV05).
T3 sequence (looked up): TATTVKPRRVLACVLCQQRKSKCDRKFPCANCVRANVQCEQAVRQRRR
The note with it: EMSA: 20 mM Tris-HCl pH 8.0, 50 mM KCl, 0.1 mg/mL BSA, 5% glycerol, 1 mM DTT, 1 ug salmon sperm DNA, ~50 ng probe, 30 min at 30 C; footprinting at 30 C; recombinant protein; residues 11-58; protein details: Trx-His-S (pET32a); label: 6-FAM; probe letters rebuilt from the primers and the genome.

In data set [5] the target is T4, PoxCxrA11-150 (Penicillium oxalicum HP7-1) (UniProt A0A2H4WV05).
T4 sequence (looked up): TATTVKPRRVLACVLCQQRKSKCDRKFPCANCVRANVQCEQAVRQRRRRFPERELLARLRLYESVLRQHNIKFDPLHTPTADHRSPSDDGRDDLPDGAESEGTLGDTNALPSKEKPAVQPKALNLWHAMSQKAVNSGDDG
Particulars: EMSA: 20 mM Tris-HCl pH 8.0, 50 mM KCl, 0.1 mg/mL BSA, 5% glycerol, 1 mM DTT, 1 ug salmon sperm DNA, ~50 ng probe, 30 min at 30 C; footprinting at 30 C; recombinant protein; residues 11-150; protein details: Trx-His-S (pET32a); label: 6-FAM; probe letters rebuilt from the primers and the genome.

Take “AAGATGTGAGAAGGACCGTGATCCAGTCAGGAAAGAAGACCAGGACTCGAATGTATAGATGGGTTGAGAGTGGTGGAAGGAGGTCCAAGTAAAAATGTCTCAAAAAGAGCACTGCGCTGCAGATAAGACTCTTATTCGTGAAGAGAGATCGATGATAGAGAGAGAGATGATCAAGGAAACAACGTTGGAGGGGGACTTCCACGAGGTTTTAATACTCCAGAATTTGGGCCAAAAAAAAAGTTCAATTCCACCACAGCCCCCTCAAAAAGTTCCAAAAATCGAGAAAATAAAAATAAAAAAAATCCGACTACACAACTTCTCCTCAACTCCACGAACAACGTGGGTGAAAAGCACGACGGCCACCCCGGGGGGCCCCAAAGTGACCGAAACCAGAAAAACCAGAACAGCCTCGAAGCGTCTCCGCAATGCCCGCAATCCCCAGTTTCCATGACCGGCCCAACACGAGCGGACATCGAGTGGAGACTCCATACGACACCGATACAGTCGGTATGATTTCTCGGGGTCCATCGATTCCATACCGAGTGGATCATGTCGACCATTACACCGGATGATACACTGACCAGGTCACATGAGAGAGGAGAGCTATTGTTAGCCCCGTCGCCAGAGCGAAAGTGTGGAGTGTGCGAACCAGCCAAAGATGGACATCAGCCACTCTGATGGCCGGTCACGCCGTCCCCGACTGGCCGAGTGGAGCCGAGTTTCACAGCTCCCAGGAAAAAAAAACACGAAATACACAAAAAAAATCAAAAATACACAAATGGTCCAGAAGACTGATCAAAGGCCAGACCGTGCGAAGAAAAGATCCTATCAAAGCCTCTGCCTCGTGCGGGCTCACCAACGCCGTAGAGGGTCAACATTCCGCAAGCA (double strand) [POX07576/RCO-3 promoter]”: the binding result in data set [1] (label: 6-FAM) is “binds”.
With “AGGAGACGAACAAATGAAAAACAGTTGGCCAACAATTCAACCAAGACCGGCTTCCCTGGAATTGCGGGGAGGGGAGAGTCGTGAAAGTGGATAAGGCTCCTTAATTTTTTTTTTCCCTTCCTCCTGGCCATCGTGTTTTATGGAGGTTCGCTTCCGTCTTGACTATCCGCCGTCGCACTCTTAGTCTCCCCGTTGACCCTCTTTTTCTTCACATCGTCAGATCGTGATCGTTGATCGTTCGGTGCTCTTCTGCTTCTTTTGCTGCTCACCTCCTCCTCCCCCCAGCTGAGTCCTTGTCGAGCTCATCCAC (double strand) [PoxClrB-310]”, in data set [1] (label: 5' 6-FAM), the binding result is given as “binds”.
Turning to “AGGAGACGAACAAATGAAAAACAGTTGGCCAACAATTCAACCAAGACCGGCTTCCCTGGAATTGCGGGGAGGGGAGAGTCGTGAAAGTGGATAAGGCTCCTTAATTTTTTTTTTCCCTTCCTCCTGGCCATCGTGTTTTATGGAGGTTCGCTTCCGTCTTGACTATCCGCCGTCGCACTCTTAGTCTCCCCGTTGACCCTCTTTTTCTTCACATCGTCAGATCGTGATCGTTGATCGTTCGGTGCTCTTCTGCTTCTTTTGCTGCTCACCTCCTCCTCCCCCCAGCTGAGTCCTTGTCGAGCTCATCCACATCAAGCAACCCTGGTGGAG (double strand) [PoxClrB-330]”, the binding result in data set [1] (label: 5' 6-FAM) is reported as “binds”.
Regarding “AGGAGACGAACAAATGAAAAACAGTTGGCCAACAATTCAACCAAGACCGGCTTCCCTGGAATTGCGGGGAGGGGAGAGTCGTGAAAGTGGATAAGGCTCCTTAATTTTTTTTTTCCCTTCCTCCTGGCCATCGTGTTTTATGGAGGTTCGCTTCCGTCTTGACTATCCGCCGTCGCACTCTTAGTCTCCCCGTTGACCCTCTTTTTCTTCACATCGTCAGATCGTGATCGTTGATCGTTCGGTGCTCTTCTGCTTCTTTTGCTGCTCACCTCCTCCTCCCCCCAGCTGAGTCCTTGTCGAGCTCATCCACATCAAGCAACCCTGGTGGAGACCGGGTCCTCTTCTCCACCATCCA (double strand) [PoxClrB-355]”, in data set [1] (label: 5' 6-FAM), the binding result was “binds”.
In the case of “AGGAGACGAACAAATGAAAAACAGTTGGCCAACAATTCAACCAAGACCGGCTTCCCTGGAATTGCGGGGAGGGGAGAGTCGTGAAAGTGGATAAGGCTCCTTAATTTTTTTTTTCCCTTCCTCCTGGCCATCGTGTTTTATGGAGGTTCGCTTCCGTCTTGACTATCCGCCGTCGCACTCTTAGTCTCCCCGTTGACCCTCTTTTTCTTCACATCGTCAGATCGTGATCGTTGATCGTTCGGTGCTCTTCTGCTTCTTTTGCTGCTCACCTCCTCCTCCCCCCAGCTGAGTCCTTGTCGAGCTCATCCACATCAAGCAACCCTGGTGGAGACCGGGTCCTCTTCTCCACCATCCATAGTGCCGAGTCCAACCCTC (double strand) [PoxClrB-375]”, the binding result in data set [1] (label: 5' 6-FAM) is “binds”.
In the case of “CACTGTGTAGCAGCATATCGAAGAAGCTGGCCATCCAGCCGGGGATTAGCAAGTTCGCGACTGCAGTGATCGGGGGTTAGAAAGTGCGAGTACCAGGATGCAAACGTGGTTCGTCGGTCTTTCTAAAACCCGCCTGTCCCCCCGCCCCCACACTCTATGGTACACTTGCCCTTTCATTCATTCTTTCTTCCTTTCTTTCCTTTTTTTTTCCGCCCAAAATCCTCGGGCTTCGGGCACTCGGACTCAGGAGCAACTCTTCTATCCCGTAGTCAATCACTTAATCACTTGCAACTGGATCAATAGTTTCTCAAGTCGTCGGC (double strand) [PoxCxrA promoter 300 bp]”, the binding result in data set [1] (label: 6-FAM) was “binds”.
Take “GAGAGATCCACTACCCGCAAAATCTGGGGAGCTTCCTCCGTGTCCGCGGAGTGCGTGCTGGCAGGCATTCCATTTTCGTGCATGACTGAGATGAACTTCACCCCCTGGGGCTATGCACAGTGGTGCGGACCGCCACGCCGTGGATGTCCATCCCAAAAGGAAATCAGTCGAGAGGCGAATTGCTTCAGGATCCACCCAAGGAAGCAACTATATAAGAAGAGGTGCCATCACCTCGACTCTGGTGTTCATCATCCATTCCTTCCTCATCTCCTCCACCACCCCCCTTTCATCAGATCCTCAAAGAACAAAATTGATCATCATCTCTTTTGATCTTTGATCCAATCCATCACA (double strand) [POX05587/Cel7A-2 promoter 300 bp]”: the binding result in data set [2], in data set [3], in data set [1] (label: 6-FAM), in data set [4] and in data set [5] was “binds” each time.
